Compound potency records, mixed from different reports. Data source: NIAID ChemDB in PubChem.

All rows: tests in culture; organism: HIV-1

Lines come from different laboratories, so protocols vary. An empty or dashed field is not shown. ECn: concentration that inhibits the pathogen or its effect by n%. a–b is a range or a potency band. Percent inhibition refers to the dose given; in toxicity tests it is the harm to the cells. Fold resistance: result on the changed form divided by that on wild type.

structure | mutations | measure | dose | method | strain | cell line | value
Cc1cc(S(N)(=O)=O)ccc1NC(=O)COc1ccc(Cl)cc1C(=O)c1cc(Cl)cc(C#N)c1 | RT-P225H | fold resistance | - | β-galactosidase | HXB2 | HeLa + HELA CD4+ | ~1
C[C@H]1[C@H](O)[C@@H](C)/C=C/C=C/C=C/C=C/C=C/C=C/C=C/[C@H](O[C@@H]2O[C@H](C)[C@@H](O)[C@H](N)[C@@H]2O)C[C@@H]2O[C@](O)(C[C@@H](O)C[C@@H](O)CC[C@H](O)[C@@H](O)C[C@@H](O)CC(=O)O[C@H]1C)C[C@H](O)[C@H]2C(=O)O | - | inhibition | 3.3 µM | p24 / RT activity | JV1083 CLADE G R5 (NSI) | PBMC | 90%
COc1ccnc2[nH]cc(C(=O)C(=O)N3CCN(C(=O)c4ccccc4)C[C@H]3C)c12 | - | EC90 | - | luciferase | AC10 | TZM-bl | 0.69 µM
O=C(NCCc1ccccc1)Nc1nncs1 | - | inhibition | 100 µg/mL | cytopathic effect / XTT | - | MT-4 | 100%
Nc1nc(=O)n([C@H]2C=C[C@@H](CO)O2)cc1F | - | EC90 | - | p24 | NL-XM WT | MT-4 | 1.4 µM
CC(C)C1=C2[C@H]3CC[C@@H]4[C@@]5(C)CC[C@H](OC(=O)[C@H]6C[C@@H](C(=O)O)C6(C)C)C(C)(C)[C@@H]5CC[C@@]4(C)[C@]3(C)CC[C@@]2(CC(=O)N(CCN(C)C)Cc2cncnc2)CC1=O | - | EC50 | - | p24 / ELISA | 92HT599 | MT-2 | <1 µM
Cc1cc(C)cc(C(=O)c2cc(Cl)ccc2OCC(=O)Nc2ccc(S(N)(=O)=O)cc2C)c1 | RT-K103N V108I | fold resistance | - | β-galactosidase | HXB2 | HeLa + HELA CD4+ | ~1
COc1ccc(S(=O)(=O)N(Cc2ccccc2)CC(O)CN(CC2CCCC2)S(=O)(=O)c2ccccc2)cc1 | - | EC90 | - | p24 | IIIB | CEM | 1 µM
Cc1cc2cn[nH]c2cc1NC(=O)COc1ccc(Cl)cc1C(=O)c1cccc(C#N)c1 | RT-K103N | fold resistance | - | β-galactosidase | HXB2 | HeLa + HELA CD4+ | ~1
CC(C)[C@H](NC(=O)OCc1ccccn1)C(=O)N[C@@H](Cc1ccccc1)[C@@H](O)C[C@H](Cc1ccccc1)NC(=O)OCc1cccnc1 | PR-L10R | EC95 | - | p24 | NL4-3 | MT-4 | 0.8 µM
CC1(C)c2nc(C(=O)NCc3ccc(F)cc3)c(O)c(=O)n2CCN1CC(=O)N1CCOCC1 | - | EC95 | - | p24 | - | MT-4 | <1 µM
COc1ccnc2[nH]cc(C(=O)C(=O)N3C4CCC3CN(C(=O)c3ccccc3)C4)c12 | - | EC90 | - | luciferase | ZM214 | TZM-bl | 59 µM
CC(C)C1=C2[C@H]3CC[C@@H]4[C@@]5(C)CC[C@H](OC(=O)[C@H]6C[C@@H](C(=O)O)C6(C)C)C(C)(C)[C@@H]5CC[C@@]4(C)[C@]3(C)CC[C@@]2([C@@H](O)CNC[C@@H](NC(=O)c2ccc(Cl)cc2)C(C)O)CC1=O | - | EC50 | - | p24 / ELISA | 92HT599 | MT-2 | <1 µM
CC(=O)c1ccc(C)cc1NC(C(N)=O)c1c(Cl)cccc1Cl | RT-Y181C K101E | fold resistance | - | cytopathic effect / XTT | UC10-resistant (RT Y181C K101E) | CEM + CEM-SS | >100
CCCCN1C(=O)[C@@H](Cc2ccccc2)NC1=S | - | inhibition | 10 µg/mL | RT activity | - | MT-4 | 9%
Cc1cn(-c2ccc(C(=O)NC(C)(C)C(=O)NC[C@H](O)[C@@]34CC[C@]5(C)[C@H](CC[C@@H]6[C@@]7(C)CC[C@H](OC(=O)[C@H]8C[C@@H](C(=O)O)C8(C)C)C(C)(C)[C@@H]7CC[C@]65C)C3=C(C(C)C)C(=O)C4)cc2)cn1 | - | EC50 | - | p24 / ELISA | 92HT599 | MT-2 | <1 µM
Cc1ccc(C2CC2)c(-c2ccc3c(c2C)CCCO3)c1[C@H](OC(C)(C)C)C(=O)O | INSTI-resistant (IN-Y143R) | fold resistance | - | luminescence | NL4-3 | MT-4 | 1
CC(C)=CCOc1cc(NC(=S)c2ccsc2C)ccc1Cl | RT-V108I | fold resistance | - | cytopathic effect / XTT | NL4-3 (RT V108I) | CEM + CEM-SS | 1
CC(C)=CCOc1cc(NC(=S)c2ccoc2C)ccc1Cl | RT-L74V | fold resistance | - | p24 | NL4-3 | CEM + CEM-SS | 1
CCC(=O)c1ccc(F)c([C@@H]2C[C@@H]2NC(=O)Nc2ccc(C#N)cn2)c1O | NNRTI-resistant (RT E138K) | fold resistance | - | β-galactosidase / luminescence | LAI | TZM-bl | 2.8
CC(C)=CCOc1cc(NC(=S)c2ccoc2C)ccc1Cl | RT-L100I | fold resistance | - | cytopathic effect / XTT | NL4-3 (RT L100I) | CEM + CEM-SS | 66.7
Cc1ccc(C2CC2)c(-c2ccc3c(c2)CCCO3)c1[C@H](OC(C)(C)C)C(=O)O | N222K | fold resistance | - | p24 / luminescence | NL4-3 | MT-4 | 2
O=C(c1ccccc1)N(CCc1ccccc1)C[C@H](O)CN(CC1CCCC1)S(=O)(=O)c1ccccn1 | - | EC90 | - | p24 | IIIB | CEM | 1 µM
Nc1nc(NC2CC2)c2ncn([C@H]3C=C[C@@H](CO)C3)c2n1 | RT-K65R L74V M184V Y115F | EC90 | - | p24 | XM-ABC-resistant | MT-4 | 100 µM
CC(=O)N1CCn2c(nc(C(=O)NCc3ccc(F)cc3)c(O)c2=O)C1CO | - | EC95 | - | p24 | - | MT-4 | <50 µM
S=C(NCCc1ccc(Cl)cc1)Nc1nccs1 | - | inhibition | 10 µg/mL | cytopathic effect / XTT | - | MT-4 | 79–93%
Cc1ccc(-c2nc3ccc(CNC[C@H](O)[C@@]45CC[C@]6(C)[C@H](CC[C@@H]7[C@@]8(C)CC[C@H](OC(=O)[C@H]9C[C@@H](C(=O)O)C9(C)C)C(C)(C)[C@@H]8CC[C@]76C)C4=C(C(C)C)C(=O)C5)cc3[nH]2)cn1 | - | EC50 | - | p24 / ELISA | 92HT599 | MT-2 | <1 µM
O=C1Nc2ccc(Cl)cc2[C@@](/C=C/C2CC2)(C(F)(F)F)N1 | RT-K101E | EC90 | - | - | - | - | <0.012 µM
Cc1cc(S(N)(=O)=O)ccc1NC(=O)COc1ccc(Cl)cc1C(=O)c1cccc(C#N)c1 | RT-V106A | EC50 | - | β-galactosidase | HXB2 | HeLa + HELA CD4+ | 0.011–0.1 µM
CCc1nnc(NC(=O)NCCc2ccccc2)s1 | - | inhibition | 10 µg/mL | cytopathic effect / XTT | - | MT-4 | 7%
CCc1cc(C#N)cc(C(=O)c2cc(Cl)ccc2OCC(=O)Nc2ccc(S(N)(=O)=O)cc2C)c1 | RT-V108I Y181C | fold resistance | - | β-galactosidase | HXB2 | HeLa + HELA CD4+ | ~1
Cc1cc(CNC(=O)c2nc3n(c(=O)c2O)CCN(C(C)C)CC3N(C)C(=O)C(=O)N(C)C)ccc1F | - | EC95 | - | p24 | - | MT-4 | <1 µM
Cc1cc(C#N)cc(C(=O)c2cc(Cl)ccc2OCC(=O)Nc2ccc(S(N)(=O)=O)nc2C)c1 | RT-K103N V108I | fold resistance | - | β-galactosidase | HXB2 | HeLa + HELA CD4+ | ~1
O=C1Nc2ccc(Cl)cc2[C@@](C#CC2CC2)(C(F)(F)F)N1 | RT-G190S | fold resistance | - | - | - | - | 28.9
CC(C)CN(CC(O)CCN1CCN(Cc2cccnc2)C[C@H]1C(=O)NC(C)(C)C)S(=O)(=O)c1ccccc1 | - | EC90 | - | p24 | IIIB | CEM | 1 µM
CC1(C)c2nc(C(=O)NCc3ccc(F)cc3)c(O)c(=O)n2CCN1Cc1cscn1 | - | EC95 | - | p24 | - | MT-4 | <1 µM
O=C(NCCc1ccccc1)Nc1nc2c(Cl)cccc2s1 | - | inhibition | 1 µg/mL | cytopathic effect / XTT | - | MT-4 | 4%
Cc1cc2[nH]cnc2cc1NC(=O)COc1ccc(Cl)cc1C(=O)c1cc(F)cc(C(F)(F)F)c1 | RT-V106I Y181C | fold resistance | - | β-galactosidase | HXB2 | HeLa + HELA CD4+ | ~1
Cc1cc(C(=O)NC[C@H](O)[C@@]23CC[C@]4(C)[C@H](CC[C@@H]5[C@@]6(C)CC[C@H](OC(=O)[C@H]7C[C@@H](C(=O)O)C7(C)C)C(C)(C)[C@@H]6CC[C@]54C)C2=C(C(C)C)C(=O)C3)n[nH]1 | - | EC50 | - | p24 / ELISA | 92HT599 | MT-2 | <1 µM
Cc1cc(OCCCS(N)(=O)=O)ccc1NC(=O)COc1ccc(Cl)cc1C(=O)c1cc(F)cc(C(F)(F)F)c1 | - | EC50 | - | β-galactosidase | WTRVA | HeLa + HELA CD4+ | <0.01 µM
CC(C)C1=C2[C@H]3CC[C@@H]4[C@@]5(C)CC[C@H](OC(=O)[C@H]6C[C@@H](C(=O)O)C6(C)C)C(C)(C)[C@@H]5CC[C@@]4(C)[C@]3(C)CC[C@@]2(CC(=O)NC(C)(C)c2ccc(Cl)cc2)CC1=O | - | EC50 | - | p24 / ELISA | 92HT599 | MT-2 | <1 µM
O=C(NCc1ccc(F)cc1)c1nc2n(c(=O)c1O)CCN(Cc1ccccc1)C2 | - | EC95 | - | p24 | - | MT-4 | <50 µM
O=C(NCCc1ccccc1)Nc1nc2ccccc2s1 | - | inhibition | 1 µg/mL | RT activity | - | MT-4 | 77%
COc1ccc(S(=O)(=O)N(CC(C)C)C[C@@H](O)C[C@H](Cc2ccccc2)CN2CSCC2C(=O)NC(C)(C)C)cc1 | - | EC90 | - | p24 | IIIB | CEM | 1 µM
CC(C)C1=C2[C@H]3CC[C@@H]4[C@@]5(C)CC[C@H](OC(=O)[C@H]6C[C@@H](C(=O)O)C6(C)C)C(C)(C)[C@@H]5CC[C@@]4(C)[C@]3(C)CC[C@@]2(CC(=O)NC[C@H](C)NC(=O)c2ccc(Cl)cc2)CC1=O | - | EC50 | - | p24 / ELISA | 92HT599 | MT-2 | <1 µM

A second listing of 7 rows from above:

structure | mutations | measure | dose | method | strain | cell line | value
CC(C)=CCOc1cc(NC(=S)c2ccoc2C)ccc1Cl | RT-L100I | fold resistance | - | cytopathic effect / XTT | NL4-3 (RT L100I) | CEM + CEM-SS | 66.7
CCc1cc(C#N)cc(C(=O)c2cc(Cl)ccc2OCC(=O)Nc2ccc(S(N)(=O)=O)cc2C)c1 | RT-V108I Y181C | fold resistance | - | β-galactosidase | HXB2 | HeLa + HELA CD4+ | ~1
CCc1nnc(NC(=O)NCCc2ccccc2)s1 | - | inhibition | 10 µg/mL | cytopathic effect / XTT | - | MT-4 | 7%
Cc1cc2cn[nH]c2cc1NC(=O)COc1ccc(Cl)cc1C(=O)c1cccc(C#N)c1 | RT-K103N | fold resistance | - | β-galactosidase | HXB2 | HeLa + HELA CD4+ | ~1
CC(C)C1=C2[C@H]3CC[C@@H]4[C@@]5(C)CC[C@H](OC(=O)[C@H]6C[C@@H](C(=O)O)C6(C)C)C(C)(C)[C@@H]5CC[C@@]4(C)[C@]3(C)CC[C@@]2(CC(=O)NC(C)(C)c2ccc(Cl)cc2)CC1=O | - | EC50 | - | p24 / ELISA | 92HT599 | MT-2 | <1 µM
CC(C)=CCOc1cc(NC(=S)c2ccoc2C)ccc1Cl | RT-L74V | fold resistance | - | p24 | NL4-3 | CEM + CEM-SS | 1
O=C(c1ccccc1)N(CCc1ccccc1)C[C@H](O)CN(CC1CCCC1)S(=O)(=O)c1ccccn1 | - | EC90 | - | p24 | IIIB | CEM | 1 µM